Pooled drug test results. Numbers come from NIAID ChemDB, via PubChem.

Shared fields: tests in culture; organism: HIV-1; measure: EC50

Blank or dashed fields: not listed here. Rows are shuffled and stem from different studies. ECn is the concentration giving n% inhibition of infection, replication or growth. a–b is a range or a potency band.

SMILES | strain or isolate | mutations | cells | read by | value
Cc1cc2cn[nH]c2cc1NC(=O)COc1ccc(Cl)cc1C(=O)c1cccc(C#N)c1 | HXB2 | RT-V106A Y181C | HeLa + HELA CD4+ | β-galactosidase | 0.011–0.1 µM
Cc1cccc(OCCOc2ccc(-c3cnc(C)c([C@H](OC(C)(C)C)C(=O)O)c3N3CCC(C)(C)CC3)nc2)c1 | NL4-3 | - | MT-2 | luminescence | 0.0009 µM
CC(C)C1=C2[C@H]3CC[C@@H]4[C@@]5(C)CC[C@H](OC(=O)[C@H]6C[C@@H](C(=O)O)C6(C)C)C(C)(C)[C@@H]5CC[C@@]4(C)[C@]3(C)CC[C@@]2(CCNC(=O)CN2CCOCC2)CC1=O | 92HT599 | - | MT-2 | p24 / ELISA | <1 µM
O=C1Nc2ccc(Cl)cc2[C@@](C#CC2CC2)(C(F)(F)F)O1 | 94ug114.1.6 | N348I | HEK293T | luciferase | 15.88 nM
CCOCCCOc1ccc(-c2cnc(C)c([C@H](OC(C)(C)C)C(=O)O)c2N2CCC(C)(C)CC2)nc1 | NL4-3 | - | MT-2 | luminescence | 0.0023 µM
C[C@@H]1CCO[C@H]2Cn3cc(C(=O)NCc4ccc(F)cc4F)c(=O)c(O)c3C(=O)N12 | NL4-3 | Y143R | CBMC | RT activity | 0.0013 µM
CCc1cc(C#N)cc(C(=O)c2cc(Cl)ccc2OCC(=O)Nc2ccc(S(N)(=O)=O)cc2C)c1 | HXB2 | RT-K103N P225H | HeLa + HELA CD4+ | β-galactosidase | <0.01 µM
C=C(C)CN1CCNC(=O)c2sc3ccc(F)cc3c21 | - | - | OM-10.1 | p24 | 0.005 µM
Cc1ncc(-c2ccc(O[C@H](C)C3CC3)nc2)c(N2CCC(C)(C)CC2)c1[C@H](OC(C)(C)C)C(=O)O | NL4-3 | - | MT-2 | luminescence | 0.0124 µM
COc1cccc(CN2CCNC(=O)c3sc4ccc([N+](=O)[O-])cc4c32)c1 | - | - | OM-10.1 | p24 | 0.03 µM
Cc1cc(S(N)(=O)=O)ccc1NC(=O)COc1ccc(Cl)cc1C(=O)c1cc(F)cc(C#N)c1 | HXB2 | RT-L100I | HeLa + HELA CD4+ | β-galactosidase | <0.01 µM
CC(C)C1=C2[C@H]3CC[C@@H]4[C@@]5(C)CC[C@H](OC(=O)[C@H]6C[C@@H](C(=O)O)C6(C)C)C(C)(C)[C@@H]5CC[C@@]4(C)[C@]3(C)CC[C@@]2([C@@H](O)CN(CCN(C)C)Cc2nccs2)CC1=O | 92HT599 | - | MT-2 | p24 / ELISA | <1 µM
COc1ccc2c(c1)C1=C(CC2)C(=O)NCCN1Cc1ccc(C)cc1 | - | - | OM-10.1 | p24 | 0.5 µM
Cc1ccc(C(=O)NC(C)(C)CNC[C@H](O)[C@@]23CC[C@]4(C)[C@H](CC[C@@H]5[C@@]6(C)CC[C@H](OC(=O)[C@H]7C[C@@H](C(=O)O)C7(C)C)C(C)(C)[C@@H]6CC[C@]54C)C2=C(C(C)C)C(=O)C3)nc1 | 92HT599 | - | MT-2 | p24 / ELISA | <1 µM
COc1ccc2ccc3c(c2c1)OC[C@H](C)NC3=O | - | - | OM-10.1 | p24 | 0.15 µM
Cc1cc(S(N)(=O)=O)ccc1NC(=O)COc1ccc(Cl)cc1C(=O)c1cccc(C#N)n1 | HXB2 | RT-V106I | HeLa + HELA CD4+ | β-galactosidase | <0.01 µM
Cc1ncc(-c2ccc(OCCOC(C)C)cn2)c(N2CCC(C)(C)CC2)c1[C@H](OC(C)(C)C)C(=O)O | NL4-3 | - | MT-2 | luminescence | 0.002 µM
CN1c2ccccc2C2C1C=C(C#N)C(=O)N2c1ccc([N+](=O)[O-])cc1 | 12AG | - | HeLa | GFP / fluorescence | 0.3 µM
Cc1ncc(-c2ccc(N(C)CCOc3ccc(Cl)cc3F)cn2)c(N2CCC(C)(C)CC2)c1[C@H](OC(C)(C)C)C(=O)O | NL4-3 | - | MT-2 | luminescence | 0.002 µM
CC(=O)c1c(C)nc(-c2ccccc2)nc1NC(=O)c1ccccc1 | G-3 | - | HeLa | GFP / fluorescence | 0.02 µM
Cc1ncc(-c2ccc(OCC3CCC3)nc2)c(N2CCC(C)(C)CC2)c1[C@H](OC(C)(C)C)C(=O)O | NL4-3 | - | MT-2 | luminescence | 0.0057 µM
Cc1cc2[nH]cnc2cc1NC(=O)COc1ccc(Cl)cc1C(=O)c1cc(F)cc(C(F)(F)F)c1 | HXB2 | RT-K103N V108I | HeLa + HELA CD4+ | β-galactosidase | <0.01 µM
[2H]C(CCCN)(CNC(=O)C[C@@]12CC[C@]3(C)[C@H](CC[C@@H]4[C@@]5(C)CC[C@H](OC(=O)[C@H]6C[C@@H](C(=O)O)C6(C)C)C(C)(C)[C@@H]5CC[C@]43C)C1=C(C(C)C)C(=O)C2)NC(=O)c1ccc(Cl)cc1 | 92HT599 | - | MT-2 | p24 / ELISA | <1 µM
Cc1cc(C)cc(C(=O)c2cc(Cl)ccc2OCC(=O)Nc2ccc(S(N)(=O)=O)cc2C)c1 | HXB2 (RT-K103N Y181C) Recombinant | RT-K103N Y181C | HeLa + HELA CD4+ | β-galactosidase | <0.01 µM
CC(C)C1=C2[C@H]3CC[C@@H]4[C@@]5(C)CC[C@H](OC(=O)[C@H]6C[C@@H](C(=O)O)C6(C)C)C(C)(C)[C@@H]5CC[C@@]4(C)[C@]3(C)CC[C@@]2(CC(=O)NC[C@H](CO)NC(=O)c2ccc(Cl)cc2)CC1=O | 92HT599 | - | MT-2 | p24 / ELISA | <1 µM
CCC(=O)c1ccc(F)c([C@@H]2C[C@@H]2NC(=O)Nc2ccc(C#N)cn2)c1O | LAI | NNRTI-resistant (RT P236L) | TZM-bl | β-galactosidase / luminescence | 0.00063 µM
Cc1ncc(-c2ccc(OCCn3nc(C(F)F)c4c3C(F)(F)[C@@H]3C[C@H]43)cn2)c(N2CCC(C)(C)CC2)c1[C@H](OC(C)(C)C)C(=O)O | NL4-3 | - | MT-2 | luminescence | 0.0026 µM
CCN1CCN(CCNC(=O)C[C@@]23CC[C@]4(C)[C@H](CC[C@@H]5[C@@]6(C)CC[C@H](OC(=O)[C@H]7C[C@@H](C(=O)O)C7(C)C)C(C)(C)[C@@H]6CC[C@]54C)C2=C(C(C)C)C(=O)C3)CC1 | 92HT599 | - | MT-2 | p24 / ELISA | <1 µM
COc1ccc2ccc3c(c2c1)N(Cc1ccccc1)CCNC3=O | - | - | OM-10.1 | p24 | <0.4 µM
CC(C)C1=C2[C@H]3CC[C@@H]4[C@@]5(C)CC[C@H](OC(=O)[C@H]6C[C@@H](C(=O)O)C6(C)C)C(C)(C)[C@@H]5CC[C@@]4(C)[C@]3(C)CC[C@@]2(CCNCc2ccc(Cl)cc2OCCN(C)C)CC1=O | 92HT599 | - | MT-2 | p24 / ELISA | <1 µM
Cc1cc(S(N)(=O)=O)ccc1NC(=O)COc1ccc(Cl)cc1C(=O)c1cc(F)cc(C(F)(F)F)c1 | IIIB | RT-V106A Y181C | HELA MAGI | luciferase | 0.016 µM
CC(C)C1=C2[C@H]3CC[C@@H]4[C@@]5(C)CC[C@H](OC(=O)[C@H]6C[C@@H](C(=O)O)C6(C)C)C(C)(C)[C@@H]5CC[C@@]4(C)[C@]3(C)CC[C@@]2(CC(=O)NCc2ccc(O[C@H]3CCOC3)cc2)CC1=O | 92HT599 | - | MT-2 | p24 / ELISA | <1 µM
O=C(O)c1cc(-n2cccc2)ccc1Cl | 93TH051 X4R5 CLADE E | - | PBMC + MT-2 | p24 | 23.6 µM
CC(C)C1=C2[C@H]3CC[C@@H]4[C@@]5(C)CC[C@H](OC(=O)[C@H]6C[C@@H](C(=O)O)C6(C)C)C(C)(C)[C@@H]5CC[C@@]4(C)[C@]3(C)CC[C@@]2([C@@H](O)CNCC(C)(C)NC(=O)c2ccc(N3CCCCC3)cc2)CC1=O | 92HT599 | - | MT-2 | p24 / ELISA | <1 µM
Cc1cc(S(N)(=O)=O)ccc1NC(=O)COc1ccc(Cl)cc1C(=O)c1cc(F)cc(F)c1 | HXB2 | RT-K103N P225H | HeLa + HELA CD4+ | β-galactosidase | <0.01 µM

For reference, 5 entries again:

| SMILES | strain or isolate | mutations | cells | read by | value |
|---|---|---|---|---|---|
| Cc1cc(S(N)(=O)=O)ccc1NC(=O)COc1ccc(Cl)cc1C(=O)c1cccc(C#N)n1 | HXB2 | RT-V106I | HeLa + HELA CD4+ | β-galactosidase | <0.01 µM |
| CC(C)C1=C2[C@H]3CC[C@@H]4[C@@]5(C)CC[C@H](OC(=O)[C@H]6C[C@@H](C(=O)O)C6(C)C)C(C)(C)[C@@H]5CC[C@@]4(C)[C@]3(C)CC[C@@]2(CC(=O)NCc2ccc(O[C@H]3CCOC3)cc2)CC1=O | 92HT599 | - | MT-2 | p24 / ELISA | <1 µM |
| Cc1ncc(-c2ccc(OCCOC(C)C)cn2)c(N2CCC(C)(C)CC2)c1[C@H](OC(C)(C)C)C(=O)O | NL4-3 | - | MT-2 | luminescence | 0.002 µM |
| CCOCCCOc1ccc(-c2cnc(C)c([C@H](OC(C)(C)C)C(=O)O)c2N2CCC(C)(C)CC2)nc1 | NL4-3 | - | MT-2 | luminescence | 0.0023 µM |
| CC(C)C1=C2[C@H]3CC[C@@H]4[C@@]5(C)CC[C@H](OC(=O)[C@H]6C[C@@H](C(=O)O)C6(C)C)C(C)(C)[C@@H]5CC[C@@]4(C)[C@]3(C)CC[C@@]2(CC(=O)NC[C@H](CO)NC(=O)c2ccc(Cl)cc2)CC1=O | 92HT599 | - | MT-2 | p24 / ELISA | <1 µM |